A mixed list of measured activities; the numbers were collected in NIAID ChemDB.

Common to all: host cell toxicity; read-out: CC50

Blank or dashed fields: not listed here. Conditions beyond the fields shown may differ between rows. CCn is the concentration with n% toxicity to the cells.

compound,cell line,method,value
Nc1cc(OC[C@H]2CC[C@@H](COCc3ccccc3)O2)ncn1,PC-3,-,136 µM
CC(C)C[C@@H]1NC(=O)[C@H](Cc2c[nH]c3ccccc23)NC(=O)CNC(=O)[C@H](CC(N)=O)NC(=O)[C@H]([C@@H](C)O)NC(=O)[C@@H](CC(C)C)NC1=O,Lung carcinoma cells,MTT,>30 µM
OCC12C(c3ccc(Oc4ccccc4)cc3)C3(CO)C4N(Cc5ccc(Oc6ccccc6)cc5)C1C1(CO)C(C5C=CC(Oc6ccccc6)=CC5)C4(CO)C3N(Cc3ccc(Oc4ccccc4)cc3)C21,EPG85-257DB,-,80 µM
c1ccc(COC[C@@H]2CC[C@H](COc3ncnc4nc[nH]c34)O2)cc1,CAKI-1,-,139 µM
CCCN(Cc1cccc(OCCCCCC(=O)OCC)c1)C(=O)c1ccc(Br)cc1,HEK 293,-,>20 µM
CCc1nc2cc3ccccc3cc2cc1C(=O)N[C@@H](C/C=C\C[C@H](NC(=O)c1cc2cc3ccccc3cc2nc1CC)C(=O)N1CCC[C@H]1C(=O)N[C@@H](Cc1ccccc1)C(=O)NCCCN)C(=O)N1CCC[C@H]1C(=O)N[C@@H](Cc1ccccc1)C(=O)NCCCN,HEK293T,WST,≥60 µM
CC(C)C[C@@H]1NC(=O)[C@H](Cc2c[nH]c3ccccc23)NC(=O)C(C)(C)NC(=O)[C@H](CCCCN)NC(=O)[C@H](C(C)C)NC(=O)[C@@H](CC(C)C)NC1=O,Lung carcinoma cells,MTT,>30 µM
CC1c2ccccc2CN1S(=O)(=O)c1ccc2[nH]c(=O)[nH]c2c1,MT-2 human T-cells,MTT,2.1 µM
Nc1c(C(=O)c2ccccc2)[nH]c2c1C1=C(CCC/C1=C\c1ccncc1)C(c1ccncc1)S2,KB,MTT,>50 µM
CCc1cn([C@@H]2O[C@H](CO)[C@@H](O)[C@@H]2O)c(=O)[nH]c1=O,HELF,-,>800 µg/mL
Br.CN1C=CN(c2cccc(N3C=CN(C)C3)n2)C1,4T1,sulforhodamine,>30 µM
COc1cc(OC[C@H]2CC[C@@H](COCc3ccccc3)O2)nc(N)n1,L1210,-,70 µM
O=C1C[C@H](Cc2cccs2)N1C(=O)NCc1ccc(C(F)(F)F)cc1,COS-7,MTT,>16 µM
Cc1cn([C@@H]2O[C@H](CO)[C@@H](O)[C@@H]2F)c(=O)[nH]c1=O,HELF,-,3 µg/mL
Nc1nc(Cl)cc(OC[C@@H]2O[C@H](COCc3ccccc3)[C@@H](OCc3ccccc3)[C@H]2OCc2ccccc2)n1,L1210,-,33 µM
O=C(O)c1cn(/N=C/c2ccc([N+](=O)[O-])cc2)c(=O)c2ccccc12,HEP-2/L-929/VERO,-,250 µM
Nc1cc(OC[C@@H]2O[C@H](CO)[C@@H](O)[C@H]2O)nc(N)n1,CAKI-1,-,137 µM
CCOC(=O)c1[nH]c2c(c1NC(N)=S)C1=C(CCC/C1=C\c1ccncc1)C(c1ccncc1)S2,CNE-2,MTT,>50 µM
Cc1nc2ccccc2n1C(=O)/C=C/c1ccccc1,8E5,MTT / absorbance,>30 µg/mL
CC/C=C\C/C=C\C/C=C\C/C=C\C/C=C\C/C=C\CCC(=O)O[C@@H]1[C@@H](C)[C@@]2(O)[C@@H](C=C(COC(C)=O)C[C@]3(O)C(=O)C(C)=C[C@@H]23)[C@@H]2C(C)(C)[C@]12O,C8166,MTT,55.9 µM
O=C1C[C@H](Cc2nc3ccccc3s2)N1C(=O)NCc1ccc([N+](=O)[O-])cc1,COS-7,MTT,>51 µM
CC(C)C[C@@H]1NC(=O)[C@H](Cc2c[nH]c3ccccc23)NC(=O)[C@@H](CCCCN)NC(=O)[C@H](CCC(N)=O)NC(=O)[C@H](CC(C)C)NC(=O)[C@@H](CC(C)C)NC1=O,Colorectal carcinoma,MTT,>30 µM
CC1=C[C@H]2[C@@]3(O)[C@H](C)[C@@H](OC(=O)CCCCC4SCC5NC(=O)NC54)[C@]4(OC(=O)CCCCC5SCC6NC(=O)NC65)[C@H]([C@@H]3C=C(CO)C[C@]2(O)C1=O)C4(C)C,C8166,MTT,>200 µM
CCOC1N=C2C3=C(N=C(C)N2N1c1ccccc1)SC(c1ccncc1)C1=C3/C(=C/c2ccncc2)CCC1,CNE-2,MTT,13.5 µM
O=C1C[C@H](Cc2nccs2)N1C(=O)NCc1ccc([N+](=O)[O-])cc1,COS-7,MTT,>29 µM
CC(C)C[C@@H]1NC(=O)[C@H](Cc2c[nH]c3ccccc23)NC(=O)C(C[C@@H](C)[C@H](N)C(=O)O)NC(=O)[C@H](CC(N)=O)NC(=O)[C@H](C(C)C)NC(=O)[C@@H](CC(C)C)NC1=O,Lung carcinoma cells,MTT,>30 µM
O=C1Cn2c(nc3c(c2=S)C2=C(CCC/C2=C\c2ccncc2)C(c2ccncc2)S3)S1,CNE-2,MTT,45.1 µM
CC(C)=CCC1C[C@]2(CC=C(C)C)C(=O)/C(=C(/O)c3ccccc3)C(=O)[C@@](CC=C(C)C)(C2=O)C1(C)C,3T3.T4.CCR5,-,1.13 µM
Nc1c2c(nc(=S)n1-c1ccccc1)SC(c1ccncc1)C1=C2/C(=C/c2ccncc2)CCC1,KB,MTT,13.1 µM
Nc1nc(N)nc(OC[C@H]2CC[C@@H](COCc3ccccc3)O2)n1,PC-3,-,>250 µM
Cc1ccc(/C=c2\c(=O)sc3nc4c(c(=S)n23)C2=C(CCC/C2=C\c2ccncc2)C(c2ccncc2)S4)cc1,CNE-2,MTT,37.1 µM
CCOC(=O)CCCCCOc1cccc(C=O)c1,HEK 293,-,>20 µM
Nc1nc(=O)n([C@@H]2O[C@H](CO)[C@@H](O)[C@@H]2F)cc1I,HELF,-,10 µg/mL
CC(=O)O[C@H]1C[C@H](n2cc(C)c(=O)[nH]c2=O)O[C@@H]1COP(=O)(OC[C@H]1O[C@@H](n2cc(C)c(=O)[nH]c2=O)C[C@@H]1OC(C)=O)OCC(Cl)(Cl)Cl,JM,-,>1000 µM
CCCCCCCCCC(=O)O[C@@]12[C@H](O)[C@@H](C)[C@@]3(O)[C@@H](C=C(CO)C[C@]4(O)C(=O)C(C)=C[C@@H]34)[C@@H]1C2(C)C,C8166,MTT,118 µM
O=C(O)c1cn(/N=C/CCc2ccccc2)c(=O)c2ccccc12,HEP-2/L-929/VERO,-,750 µM
O=c1sc2nc3c(c(=S)n2/c1=C/c1ccc(Cl)cc1)C1=C(CCC/C1=C\c1ccncc1)C(c1ccncc1)S3,KB,MTT,34.1 µM
CC(C)C[C@@H]1NC(=O)[C@H](Cc2c[nH]c3ccccc23)NC(=O)[C@@H](CC(C)C)NC(=O)[C@H](CCCCN)NC(=O)[C@H](C(C)C)NC(=O)[C@@H](CC(C)C)NC1=O,Colorectal carcinoma,MTT,>30 µM
COc1ccc(CN2C3C4(CO)C(c5ccccc5)C5(CO)C2C2(CO)C(C6C=CC=CC6)C3(CO)C4N(Cc3ccc(OC)cc3)C52)cc1,EPG85-257DB,-,80 µM
CO[C@H]1C[C@H](n2cc(C)c(=O)[nH]c2=O)O[C@@H]1CO,JM,-,>1000 µM
O=C1C[C@H](Cc2ccco2)N1C(=O)NCc1ccc([N+](=O)[O-])cc1,COS-7,MTT,>261 µM
COc1ccc(-c2nc3ccccc3n2C(=O)/C=C/c2ccccc2)cc1,8E5,MTT / absorbance,20 µg/mL
CO/C=C(/C(=O)OC)[C@H](C)[C@@H](O)/C=C/c1ccccc1,HL-60,-,>100 µg/mL
N#Cc1cn(CCSc2cc(C(F)(F)F)nc3ccccc23)c(=O)[nH]c1=O,MT-2 human T-cells,MTT,>100 µM
C=C1C[C@@H](OC(=O)c2ccccc2)[C@H]2[C@](C)(C(=O)O)CCC[C@]2(C)C1CCC(C)=O,HELA229,-,0.94 µg/mL
O=c1[nH]c(=O)n([C@@H]2O[C@H](CO)[C@@H](O)[C@@H]2O)cc1/C=C/I,HELF,-,>800 µg/mL
Cc1cn([C@H]2C[C@H](N=[N+]=[N-])[C@@H](COP(=O)(OC[C@H]3O[C@@H](n4cc(C)c(=O)[nH]c4=O)C[C@@H]3N=[N+]=[N-])OCC(F)(F)F)O2)c(=O)[nH]c1=O,JM,-,>500 µM
CC(C)Oc1cccc(-c2ccc(C(=O)N(Cc3cccc(OCCCCCC(=O)OC(=O)O)c3)C(C)C)cc2)c1,BJ,-,>20 µM
O=C1C[C@H](Cc2nccs2)N1C(=O)NCc1ccc(C(F)(F)F)cc1,COS-7,MTT,>116 µM
O=c1[nH]c(=O)n([C@@H]2O[C@H](CO)[C@@H](O)[C@@H]2O)cc1/C=C/Cl,HELF,-,>800 µg/mL
CC(C)N(Cc1ccccc1OCC(=O)O)C(=O)c1ccc(-c2ccc3c(c2)OCO3)cc1,BJ,-,>20 µM
CC1=C[C@H]2[C@@]3(O)[C@H](C)[C@@H](OC(=O)/C=C/c4ccccc4)[C@]4(O)[C@H]([C@@H]3C=C(CO)C[C@]2(O)C1=O)C4(C)C,C8166,MTT,114 µM
CC(C)C[C@@H]1NC(=O)[C@H](Cc2c[nH]c3ccccc23)NC(=O)[C@@H](CCCCN)NC(=O)[C@H](CC(N)=O)NC(=O)[C@H](C(C)C)NC(=O)[C@@H](CC(C)C)NC1=O,Colorectal carcinoma,MTT,>30 µM
Cc1ccc(OCCn2ccc(=O)[nH]c2=O)c(Cc2ccccc2)c1,MT-2 human T-cells,MTT,43 µM
C=C1C[C@@H](OC(=O)c2ccccc2)[C@H]2[C@](C)(C(=O)O)CCC[C@]2(C)C1CC/C(C)=C/CO,HELA229,-,1.8 µg/mL
CC(/C=N/n1cc(C(=O)O)c2ccccc2c1=O)=C\c1ccccc1,HEP-2/L-929/VERO,-,500 µM
CC(C)N(Cc1cccc(OCCCCCC(=O)OC(=O)O)c1)C(=O)c1ccc(-c2c[nH]c3ccccc23)cc1,HepG2,-,>20 µM
COc1ccc(/C=N/n2cc(C(=O)O)c3ccccc3c2=O)cc1,HEP-2/L-929/VERO,-,500 µM
CCOC(=O)COc1ccc(CO)cc1,RAJI,-,>20 µM
CC(C)C[C@@H]1NC(=O)[C@H](Cc2c[nH]c3ccccc23)NC(=O)[C@@H](Cc2ccccc2)NC(=O)[C@H](CCCCN)NC(=O)[C@H](C(C)C)NC(=O)[C@@H](CC(C)C)NC1=O,Colorectal carcinoma,MTT,>30 µM
Cc1ccc(/C=C2/Cn3c(nc4c(c3=S)C3=C(CCC/C3=C\c3ccncc3)C(c3ccncc3)S4)SC2=O)cc1,CNE-2,MTT,20.2 µM
CCCCCCCCC(=O)O[C@@H]1[C@@H](C)[C@@]2(O)[C@@H](C=C(CO)C[C@@]3(O)C(=O)C(C)=C[C@@H]23)[C@@H]2C(C)(C)[C@]12OC(=O)CCCCCCCC,C8166,MTT,>200 µM
O=C(O)c1cn(/N=C/c2ccc(Cl)cc2)c(=O)c2ccccc12,HEP-2/L-929/VERO,-,100 µM